Test results from patent publication US20160228506A1, “Compositions and Formulations for Prevention and Reduction of Tumorigenesis, Cancer Cell Proliferation and Invasion, and Methods of Production and Use Thereof in Cancer Treatment” (PRONUTRIA, INC., priority 2013, published 2016).

Assay: Anti-FLAG ELISA of protein secretion in Aspergillus niger
Conditions: for ELISA 10 ml shake flask: 10 ml minimal medium, three days; for ELISA 1st MTP: primary transformants, 96 deep well, 72 hrs, culture supernatant; for ELISA 2nd MTP: retest after single spore purification

| Substance | ELISA 10 ml shake flask [mg/L] | ELISA 1st MTP [mg/L] | ELISA 2nd MTP [mg/L] |
| --- | --- | --- | --- |
| SEQID-00897 | 0.6 to 2.2 | 11.9 to 21.4 | 3.6 to 17.5 |
| SEQID-00218: nutritive polypeptide (GTIENLEEAKKKLLKDVEVLSQRLEEKALAYDKLEKTKTRLQQELDDLLVDLDHQ; listed as Bos taurus) | 2.1 to 13.3 | 28.2 to 69.3 | 0.4 to 191.7 |
